A mixed list of measured activities; the numbers were collected in NIAID ChemDB.

All rows: tests on isolated targets; organism: HIV-1; target: Reverse transcriptase; read-out: IC50

Rows are shuffled and stem from different studies. An empty or dashed field is not shown. ICn: concentration for n% inhibition.

smiles	strain or isolate	mutations	read by	value
Cc1cccc(NC(=S)N[C@@H](C)c2ccccc2)n1	-	-	nucleotide incorporation	>100 µM
COC1CCC(OC2CC(C3OC(O)(CO)C(C)CC3C)OC2C2(C)CCC(C3(C)CCC4(CC(O)C(C)C(C(C)C5OC(O)(CC(=O)O)C(C)C(OC6CCC(OC)C(C)O6)C5OC)O4)O3)O2)OC1C	-	-	RT activity	>100 µg/mL
O=C(O)P(O)(O)=S	-	-	-	0.7 µM
Cc1cc(C)c(S(=O)(=O)N2CCC(NC(=O)c3cc(O)c(O)c(O)c3)CC2)c(C)c1	BH10	-	ELISA / nucleotide incorporation	>276.2 µM
CC[C@@]1([C@@H]2O[C@@H]([C@H]3O[C@@](O)(CO)[C@H](C)C[C@@H]3C)C[C@@H]2C)CC[C@H]([C@]2(C)CC[C@]3(C[C@H](O)[C@@H](C)[C@@H]([C@@H](C)[C@@H](OC)[C@H](C)C(=O)O)O3)O2)O1	-	-	RT activity	>100 µg/mL
Cc1cccc(NC(=S)NC[C@@H](C)c2ccccc2)n1	-	-	nucleotide incorporation	>100 µM
O=C(Nc1cc(-c2ccc3c(c2)CCCC3)[nH]n1)c1ncccn1	NL4-3	WT	RT activity / nucleotide incorporation / luminescence	1.1 µM
COc1ccc2nc(NC(=S)N[C@H](C)c3ccccc3)sc2c1	-	-	nucleotide incorporation	>100 µM
CCC1(c2ccc(COc3cccc(Cl)c3)cc2)Oc2ccccc2-n2cccc2C1=O	-	RT-Y188L	nucleotide incorporation / radiometric	>10 µM
C[C@H](NC(=S)Nc1nc2ccccc2s1)c1cccc2ccccc12	-	-	nucleotide incorporation	>100 µM
O=C(CSc1nnnn1-c1cc(F)ccc1Cl)Nc1ccccc1[N+](=O)[O-]	-	RT-K103N	-	0.01 µM
CCCc1cc(CCc2nc3c(Cl)ccc(Cl)c3o2)c(=O)[nH]c1C	-	-	nucleotide incorporation	0.03 µM
CC[C@@H](O)[C@]1(C)C[C@H](C)[C@@](O)([C@H]2C[C@H](C)[C@H]([C@]3(C)CC[C@H]([C@@H]4CC[C@@]5(O[C@H]([C@@H](C)[C@@H](OC)[C@H](C)C(=O)O)[C@H](C)[C@@H](OC)[C@H]5C)O4)O3)O2)O1	-	-	RT activity	>100 µg/mL
CC(C)(C)OC(=O)N1CCC(NC(=O)c2cc(O)c(O)c(O)c2)CC1	BH10	-	ELISA / nucleotide incorporation	>340.5 µM
O=C(CSc1sc(Cl)nc1-c1ccc(Br)cc1Br)Nc1cccnc1Cl	-	-	-	>361 µM
CCC1(c2cccc(COc3ccccc3)c2)Oc2ccccc2-n2cccc2C1=O	-	RT-Y181I	nucleotide incorporation / radiometric	>100 µM
O=C(Nc1cc(-c2ccc3c(c2)CCCC3)[nH]n1)c1cccs1	NL4-3	Y181C	RT activity / nucleotide incorporation / luminescence	0.28 µM
CC(C)c1cc(C(C)C)c(S(=O)(=O)N2CCN(C(=O)c3cc(O)c(O)c(O)c3)CC2)c(C(C)C)c1	BH10	-	ELISA / nucleotide incorporation	>50 µM
Cc1cn([C@H]2C=C[C@@H](COP(=O)(O)O)O2)c(=O)[nH]c1=O	-	-	RT activity	>100 µM
O=C(/C=C/c1ncccn1)Nc1cc(-c2ccc3c(c2)CCCC3)[nH]n1	NL4-3	WT	RT activity / nucleotide incorporation / luminescence	0.54 µM
C[C@H](CNC(=S)Nc1ccc(Cl)cn1)c1ccccc1	-	-	nucleotide incorporation	1.4 µM
C[C@@H](NC(=S)Nc1nc2ccccc2s1)c1cccc2ccccc12	-	-	nucleotide incorporation	0.44 µM
Cc1ccc(Cl)cc1-n1nnnc1SCC(=O)Nc1ccccc1[N+](=O)[O-]	-	-	-	0.023 µM
CC(=O)O[C@H]1CC[C@]2(C)C3CC=C4C5[C@](C(=O)O)(CC[C@@H](C)[C@@]5(C)O)CC[C@@]4(C)[C@]3(C)CC[C@H]2C1(C)C	MC99	-	RT activity / fluorescence	291 µM
CCC1(c2ccc(COc3ccccc3)cc2)Oc2ccccc2-n2cccc2C1=O	-	RT-V106A	nucleotide incorporation / radiometric	0.8 µM
C[C@@H](NC(=S)Nc1ccccn1)c1cccc2ccccc12	-	-	nucleotide incorporation	1.21 µM
CCc1ccc(N2CC(O)Cn3c2nc2c3c(=O)n(C)c(=O)n2C)cc1	-	-	nucleotide incorporation / absorbance	>100 µM
Cc1cccc2sc(NC(=S)NC[C@H](C)c3ccccc3)nc12	-	-	nucleotide incorporation	>100 µM
O=C(Nc1cc(-c2ccc3c(c2)CCCC3)[nH]n1)c1ccno1	NL4-3	K103N	RT activity / nucleotide incorporation / luminescence	1 µM
O=C(NC1CCN(S(=O)(=O)c2ccc(F)cc2)CC1)c1cc(O)c(O)c(O)c1	BH10	-	ELISA / nucleotide incorporation	>55.2 µM
Nc1nc2c(ncn2[C@H]2CC[C@@H](COP(=O)(O)OP(=O)(O)OP(=O)(O)O)O2)c(=O)[nH]1	-	RT-V106A	nucleotide incorporation / radiometric	0.16 µM
O=C(O)C(=NNc1ccc(Cl)cc1)C(=O)O	NL4-3	WT	RT activity / nucleotide incorporation / luminescence	1.4 µM
Cc1cc(C)c(-n2nnnc2SCC(=O)Nc2ccc(S(N)(=O)=O)cc2C)c(C)c1	-	-	-	0.054 µM
Cc1cccc2sc(NC(=S)N[C@H](C)c3cccc4ccccc34)nc12	-	-	nucleotide incorporation	10.2 µM
CCN1c2cc(C)c(C)cc2N(C)S(=O)(=O)c2cccnc21	-	-	nucleotide incorporation	30 µM
O=C(CSc1nnnn1-c1cccc(Cl)c1Cl)Nc1ccccc1[N+](=O)[O-]	-	RT-K103N	-	0.12 µM
Cc1cn([C@H]2C=C[C@@H](COP(=O)(O)OP(=O)(O)OP(=O)(O)O)O2)c(=O)[nH]c1=O	WT	-	nucleotide incorporation / radiometric	0.05 µM
Cc1ccc(NC(=S)NC[C@H](C)c2ccccc2)nc1	-	-	nucleotide incorporation	0.5 µM
Cc1ccc(C(=O)N2CCC(NC(=O)c3cc(O)c(O)c(O)c3)CC2)cc1	BH10	-	ELISA / nucleotide incorporation	>324 µM
Oc1c(Oc2ccc(Cl)cc2Cl)c(Cl)cc(Cl)c1Oc1ccc(Cl)cc1Cl	-	-	-	91 µM
CCC1(c2ccc(I)cc2)Oc2ccccc2-n2cccc2C1=O	-	RT-Y181I	nucleotide incorporation / radiometric	>100 µM
C[C@H](CNC(=S)Nc1ccccn1)c1ccccc1	-	-	nucleotide incorporation	3.5 µM
Nc1ccn([C@H]2CC[C@@H](COP(=O)(O)OP(=O)(O)OP(=O)(O)O)O2)c(=O)n1	-	RT-V106A P225H	nucleotide incorporation / radiometric	3.42 µM
Cc1cn([C@H]2C=C[C@@H](CO)O2)c(=O)[nH]c1=O	-	-	RT activity	>100 µM
Cc1csc(NC(=S)N[C@@H](C)c2cccc3ccccc23)n1	-	-	nucleotide incorporation	>100 µM
Cc1c(Cl)cccc1-n1nnnc1SCC(=O)Nc1ccccc1[N+](=O)[O-]	-	RT-K103N	-	0.009 µM
Cc1cccc(S(=O)(=O)N2CCN(C(=O)c3cc(O)c(O)c(O)c3)CC2)c1	BH10	-	ELISA / nucleotide incorporation	>50 µM
CCOC(=O)Cc1csc(NC(=S)N[C@@H](C)c2cccc3ccccc23)n1	-	-	nucleotide incorporation	>100 µM

Repeating the first 7 entries:

smiles | strain or isolate | mutations | read by | value
Cc1cccc(NC(=S)N[C@@H](C)c2ccccc2)n1 | - | - | nucleotide incorporation | >100 µM
COC1CCC(OC2CC(C3OC(O)(CO)C(C)CC3C)OC2C2(C)CCC(C3(C)CCC4(CC(O)C(C)C(C(C)C5OC(O)(CC(=O)O)C(C)C(OC6CCC(OC)C(C)O6)C5OC)O4)O3)O2)OC1C | - | - | RT activity | >100 µg/mL
O=C(O)P(O)(O)=S | - | - | - | 0.7 µM
Cc1cc(C)c(S(=O)(=O)N2CCC(NC(=O)c3cc(O)c(O)c(O)c3)CC2)c(C)c1 | BH10 | - | ELISA / nucleotide incorporation | >276.2 µM
CC[C@@]1([C@@H]2O[C@@H]([C@H]3O[C@@](O)(CO)[C@H](C)C[C@@H]3C)C[C@@H]2C)CC[C@H]([C@]2(C)CC[C@]3(C[C@H](O)[C@@H](C)[C@@H]([C@@H](C)[C@@H](OC)[C@H](C)C(=O)O)O3)O2)O1 | - | - | RT activity | >100 µg/mL
Cc1cccc(NC(=S)NC[C@@H](C)c2ccccc2)n1 | - | - | nucleotide incorporation | >100 µM
O=C(Nc1cc(-c2ccc3c(c2)CCCC3)[nH]n1)c1ncccn1 | NL4-3 | WT | RT activity / nucleotide incorporation / luminescence | 1.1 µM